# Data taken from article PMC3364000 (Vaccine, 2009).
# What was measured:
# Assay in all cases: biochemical
# Assay type in all cases: binding
# HLA-DRB1*0701 = HLA-DRB1*0701 (Homo sapiens, UniProt P01903+P01911, A100R/A102G/A103Q/D57E/D86V/E43K/F76Y/K127E/L162R/M171V/P40G/Q125H/Q99D/R33Q/R42Y/R54Q/S133A/S66F/T210M/V115G/Y107V/Y59L/Y89S)
# HLA-DRB1*0301 = HLA-DRB1*0301 (Homo sapiens, UniProt P01903+P01911, A100K/A102G/A103R/A169T/F55Y/I96L/K41T/L162R/M171V/P40S/Q125H/Q178H/Q39Y/R42S/S66N/T106N/T262R/W38E/Y61H)
# HLA-DRB4*0101 = HLA-DRB4*0101 (Homo sapiens, UniProt P01903+P13762, G164S)
Structure (SMILES),IC50 (HLA-DRB1*0701),IC50 (HLA-DRB1*0301),IC50 (HLA-DRB4*0101)
CC[C@H](C)[C@H](NC(=O)[C@H](CC(N)=O)NC(=O)[C@H](Cc1ccc(O)cc1)NC(=O)[C@H](CC(C)C)NC(=O)[C@H](CC(N)=O)NC(=O)[C@@H]1CCCN1)C(=O)N[C@@H](CCCNC(=N)N)C(=O)N[C@@H](CC(N)=O)C(=O)N[C@@H](CC(C)C)C(=O)N[C@@H](Cc1c[nH]cn1)C(=O)N[C@H](C(=O)N1CCC[C@H]1C(=O)N[C@@H](CCC(=O)O)C(=O)N[C@H](C(=O)N[C@@H](CS)C(=O)O)C(C)C)[C@@H](C)CC [PB1.596],10 nM,> 10000 nM,–
CC[C@H](C)[C@H](NC(=O)CNC(=O)[C@@H](N)CCCCN)C(=O)N[C@@H](CC(C)C)C(=O)NCC(=O)N[C@@H](Cc1ccccc1)C(=O)N[C@H](C(=O)N[C@@H](Cc1ccccc1)C(=O)N[C@H](C(=O)N[C@@H](CC(C)C)C(=O)N[C@H](C(=O)N[C@H](C(=O)N1CCC[C@H]1C(=O)N[C@@H](CO)C(=O)N[C@@H](CCC(=O)O)C(=O)O)C(C)C)[C@@H](C)O)[C@@H](C)O)C(C)C [M1.57],–,–,356 nM
